Results as given in patent US20100184727A1, “TREATMENT OF EXCESS SEBUM PRODUCTION” (SUMMIT (CAMBRIDGE) LIMITED, priority 2006, published 2010).

Tested on: sebum production
Test: Sebum production study in healthy male volunteers (Sebumeter)
Format: in vivo
Settings: mixed effects regression, subject as random effect
Procedure: The study examined the effects of oxybutynin on sebum production in 9 healthy male volunteers. This was double-blind, randomised, placebo-controlled dose study
The subjects were assessed on each dosing occasion for sebum production pre-dose and 1 h, 2.5 h, 4 h and 6 h post-dose. Skin sebum excretion rates were determined using a Sebumeter® (Optical measurement of sebum excretion using opalescent film imprint, 2006, Handbook of non-invasive methods and the skin, Second Edition). Vital signs were recorded at specified times during each study period and adverse events were reported throughout.
For each subject, the maximum % reduction in sebum production compared to placebo was calculated for each dose level. Using this information, a mixed effects regression analysis of the % reduction in sebum versus dose with subject as a random effect was performed.

CCN(CC)CC#CCOC(=O)C(O)(c1ccccc1)C1CCCCC1 (stereo not shown) [oxybutynin]
Slope (mixed model regression of % reduction in sebum versus dose): −10.07
